Source: US20220275059A1 (HARBOUR ANTIBODIES, published 2022)

B1: 3.5g6 (antibody, V domains shown)
VH: QVQLQQSGPGLVKPSQTLSLTCAISGHSVSSNSADWNWIRQSPSRGLEWLGRTYCRSKCYNDYAVSVKSRITINPDTSKNQFSLQLNPVTPEDTAVYYCARSLGSGTYPFDSWGQGTLVTVSS
VL: DIQMTQSPSSLSASVGDRVTITCRASQRISRFLNWYQQTPGKAPKFLIYAASSLQSGVPSRFSGSGSGTDFTLTISSLQPEDFATYYCQQSYSTPLTFGGGTTVEIKR
B2: 1.10f3 (antibody, V domains shown)
VH: QVQLVESGGGVVQPGRSLRLSCKASGFTFRGYGMHWVRQAPGKGLEWVTVIWHDASNKYYVDSVKGRFSISRDNSKNTLYLQMNSLRAEDTAVYYCARDAGLSFDIWGQGTMVTVSS
VL: not shown

Target: MERS-S on pseudotyped VSV particles (MERS-S carrying a 16-a.a. cytoplasmic tail truncation) (MERS-CoV, UniProt K9N5Q8 18-1337)
Test: cell-based or functional assay

| Binder | 50% inh titer, MERS-S VSV ps., column Human IgG MAb |
| --- | --- |
| B1 | > 20 µg/mL |
| B2 | > 20 µg/mL |
